Conditions: Liquid; for mass density / viscosity: 101.33 kPa; for viscosity: Capillary tube (Ostwald / Ubbelohde) method

ClP(Cl)Oc1ccccc1 [phenyl phosphorodichloridite]
Conditions | mass density [kg/m3] | vapor or sublimation pressure [kPa] | viscosity [mPa·s]
293.27 K | 1353.1 | – | 2.206
303.25 K | 1344.2 | – | 1.835
313.2 K | 1333 | – | 1.554
323.18 K | 1320.4 | – | 1.338
333.06 K | 1293.4 | – | 1.155
343.2 K | 1279.7 | – | 1.016
353.2 K | 1262.2 | – | 0.9
363.18 K | 1247 | – | 0.8
363.25 K | – | 1.47 | –
368.85 K | – | 1.93 | –
373.06 K | 1229.8 | – | 0.721
373.36 K | – | 2.39 | –
377.56 K | – | 2.89 | –
381.85 K | – | 3.49 | –
383.26 K | 1214.1 | – | 0.655
386.24 K | – | 4.22 | –
390.85 K | – | 5.11 | –
393.26 K | 1196.5 | – | 0.599
395.53 K | – | 6.19 | –
398.76 K | – | 7.04 | –
403.6 K | – | 8.5 | –
403.66 K | 1177.7 | – | 0.542
408.48 K | – | 10.23 | –
412.85 K | – | 12.02 | –
413.47 K | 1161.2 | – | 0.501
417.95 K | – | 14.44 | –
422.05 K | – | 16.67 | –
423.25 K | 1143.1 | – | 0.467
427.13 K | – | 19.74 | –
431.14 K | – | 22.69 | –
434.75 K | – | 25.54 | –
439.67 K | – | 29.9 | –
443.56 K | – | 33.78 | –
448.54 K | – | 39.36 | –
453.36 K | – | 45.46 | –
458.47 K | – | 52.77 | –
461.57 K | – | 57.67 | –
466.53 K | – | 66.28 | –
471.06 K | – | 75.05 | –
475.71 K | – | 88.11 | –
480.79 K | – | 101.33 | –

Reference: the NIST ThermoML archive (doi:10.1021/je8000427)
